Holding throughout (test): cell-based or functional assay
The target of assay [1] is T1, neuraminidase (NA) of H1N1 A/Mississippi/3/2001 H274Y (influenza A virus H1N1 …).
The target in assay [2] is human FcγRIIIa receptor (V158) (human, UniProt P08637 17-254).
The target in assay [3] is T1, neuraminidase (NA) of H1N1 …. The source holds these as a separate data set.

The text below walks through data of patent US20180016348A1 (Janssen / Centocor, published 2018).

B1: CR12042 (antibody, V domains shown)
VH: EVQLVESGAEVRKPGSSVKVSCTASGDTFSSYTITWVRQAPGQGLEWMGEIIPIFGTANYAQKFQGRVTLTADESTTTAYMDLSSLRSEDTAVYYCARGPDNHSDRYFYYGMDVWGQGTTVTVSS
VL: EIVLTQSPLSLPVTPGEPASISCRSSQSLLHSTGNNYLDWYLQKPGQSPQLLIYLGSNRASGVPDRFSGSGSGTDFTLKISRVEAEDVGVYYCMQALQTPRTFGQGTKVDIK
For the molecule B1, the “EC50 of neuraminidase inhibition (NA-XTD assay, whole virus)” value in assay [1] is 0.15 µg/mL. Besides, the “ADCC reporter EC50; A549 targets infected with H1N1 A/Mississippi/03/2001 H274Y” value in assay [2] was 0.16 µg/mL. In addition, in assay [3], the “IC50 of virus neutralization (VNA on MDCK cells)” value came out at 0.48 µg/mL.

B2: CR12040 (antibody, V domains shown)
VH: QVQLVQSGAEVKKPGASVKVSCKASGYTFTNYYINWVRQAPGQGLEWMGRINPLHGGTGFAEKFQGRLTMTRDTSTSTVDMELSSLRSEDTAIYYCVKERDTTMATDYYGRSGCFDYWGQGTLVTVSS
VL: EIVLTQSPATLSLSPGERATLSCRASQSVRSYLAWYQQKPGQAPRLLIYDASNRATGIPARFSGSGSGTDFSLTISSLEPEDFAVYYCQQRSNWPITFGQGTRLEIK
As for B2, the “ADCC reporter EC50; A549 targets infected with H1N1 A/Mississippi/03/2001 H274Y” value in assay [2] was determined as 0.04 µg/mL.
